Compound potency records, mixed from different reports. Data source: NIAID ChemDB in PubChem.

Shared fields: tests in culture; species: Candida albicans

A number after MIC or MFC names an inhibition level or a share of isolates. ECn is the concentration giving n% inhibition of infection, replication or growth. Inhibition is in % at the dose shown (toxicity tests: loss of growth or viability). Rows are shuffled and stem from different studies. An empty or dashed field is not shown.

smiles | dose | conditions | measure | strain or isolate | method | result
Cc1ccc(-c2c3c(N)c4c(nc3nc3c2c(C)nn3-c2ccccc2)CCC4)cc1 | - | - | MIC100 | ATCC 10231 | broth dilution / absorbance | 125 µg/mL
CC(=O)N1CCN(c2ccc(OC[C@H]3CO[C@](Cn4ccnc4)(c4ccc(Cl)cc4Cl)O3)cc2)CC1 | - | pH 4 | EC90 | 10 isolates | broth dilution | >16 µg/mL
Cc1ccc(-n2cc(C(C)(C)O)nn2)cc1C | 2048 µg/mL | - | inhibition | URM 4260 | broth dilution | 0%
C=CCc1ccc(OC)c(OC)c1 | - | - | MIC90 | 3143 | turbidity | 340 µg/mL
OC(CN1CCN(c2ccc(OCc3ccncc3)cc2)CC1)(Cn1cncn1)c1ccc(F)cc1F | - | - | MIC80 | 17 | - | 2 µg/mL
CC(C)(O)c1cn(-c2ccccc2)nn1 | 2048 µg/mL | - | inhibition | URM 3719 | broth dilution | 0%
Cc1ccc(-c2c3c(N)c4c(nc3nc3c2c(C)nn3-c2ccccc2)CCCCC4)cc1 | - | - | MIC100 | CCC 130 | broth dilution / absorbance | 125 µg/mL
CC[C@@H]([C@H](C)O)n1ncn(-c2ccc(N3CCN(c4ccc(OC[C@@H]5CO[C@@](Cn6cncn6)(c6ccc(F)cc6F)C5)cc4)CC3)cc2)c1=O | - | pH 5 | MIC | 10 isolates | broth dilution | 0.03 µg/mL
C[C@H]1[C@H](O)[C@@H](C)/C=C/C=C/C=C/C=C/C=C/C=C/C=C/[C@H](O[C@@H]2O[C@H](C)[C@@H](O)[C@H](N)[C@@H]2O)C[C@@H]2O[C@](O)(C[C@@H](O)C[C@@H](O)CC[C@H](O)[C@@H](O)C[C@@H](O)CC(=O)O[C@H]1C)C[C@H](O)[C@H]2C(=O)O | - | - | MIC100 | CCC 127 | broth dilution / absorbance | 0.78 µg/mL
COC(=O)[C@H]1[C@@H]2C[C@@H](O[C@@H]3O[C@H](C)[C@@H](O)[C@H](N)[C@@H]3O)/C=C/C=C/C=C/C=C/C=C/C=C/C=C/[C@H](C)[C@@H](O)[C@H](C)[C@H](C)OC(=O)C[C@H](O)C[C@H](O)[C@@H](O)CC[C@H](O)C[C@H](O)C[C@](O)(C[C@@H]1O)O2 | - | pH 6 | EC90 | 10 isolates | broth dilution | 2 µg/mL
C[C@@H](N1CCN(Cc2cn(Cc3cccc(C(F)(F)F)c3)c3ccccc23)CC1)[C@](O)(Cn1cncn1)c1ccc(F)cc1F | - | - | MIC80 | ATCC MYA-1003 | resazurin | 16 µg/mL
CC(C)(O)c1cn(-c2cccc3ccccc23)nn1 | 2048 µg/mL | - | inhibition | URM 4819 | broth dilution | 0%
C=CCc1ccc(Cn2cc(CN3CCN([C@H](C)[C@](O)(Cn4cncn4)c4ccc(F)cc4F)CC3)c3ccccc32)cc1 | - | - | MIC80 | ATCC MYA-1003 | resazurin | 32 µg/mL
Cc1ccc(-c2c3c(N)c4c(nc3nc3c2c(C)nn3-c2ccccc2)CCCC4)cc1 | - | - | MIC80 | CCC 128 | broth dilution / absorbance | 31.2 µg/mL
CC(C)N=C(N)c1ccc2nc(-c3ccc4c(c3)Cc3cc(-c5nc6ccc(C(N)=NC(C)C)cc6[nH]5)ccc3-4)[nH]c2c1 | - | - | MFC | ATCC 76615 | - | 1.56 µg/mL
CC(O)Cn1cc(CN2CCN([C@H](C)[C@](O)(Cn3cncn3)c3ccc(F)cc3F)CC2)c2cccc(Cl)c21 | - | - | MIC80 | ATCC MYA-1003 | resazurin | 64 µg/mL
Nc1[nH]c(=O)ncc1F | - | pH 4 | EC90 | 15 isolates | broth dilution | 0.25 µg/mL
CC(C)(O)c1cn(-c2ccc([N+](=O)[O-])cc2)nn1 | 2048 µg/mL | - | inhibition | URM 4606 | broth dilution | 0%
C[C@@H](N1CCN(Cc2c[nH]c3ccccc23)CC1)[C@](O)(Cn1cncn1)c1ccc(F)cc1F | - | - | MIC80 | ATCC 90028 | resazurin | 0.25 µg/mL

For reference, 2 entries again:

| smiles | dose | conditions | measure | strain or isolate | method | result |
|---|---|---|---|---|---|---|
| C[C@@H](N1CCN(Cc2cn(Cc3cccc(C(F)(F)F)c3)c3ccccc23)CC1)[C@](O)(Cn1cncn1)c1ccc(F)cc1F | - | - | MIC80 | ATCC MYA-1003 | resazurin | 16 µg/mL |
| OC(CN1CCN(c2ccc(OCc3ccncc3)cc2)CC1)(Cn1cncn1)c1ccc(F)cc1F | - | - | MIC80 | 17 | - | 2 µg/mL |